# From publication PMC10127594
# For at least one entry, the source does not settle the construct or the ends of the probe.
# Key:
# [1] = biological target: T1, Gac (Borrelia burgdorferi sensu stricto B31) (UniProt O51396); assay: EMSA; conditions: 10 nM DNA, 25 nM Gac, EMSA: 50 mM Tris-HCl (pH not stated), 25 mM KCl, 10% glycerol, 0.01% Tween 20, 100 nM DTT, 1 mM PMSF, 15 min, room temperature, 10 nM probe, recombinant protein, protein details: C-terminal His (pET101), label: IRDye800 (probe) or unlabeled, probe letters rebuilt from the primers and the genome, part of a longer …
# T1 sequence: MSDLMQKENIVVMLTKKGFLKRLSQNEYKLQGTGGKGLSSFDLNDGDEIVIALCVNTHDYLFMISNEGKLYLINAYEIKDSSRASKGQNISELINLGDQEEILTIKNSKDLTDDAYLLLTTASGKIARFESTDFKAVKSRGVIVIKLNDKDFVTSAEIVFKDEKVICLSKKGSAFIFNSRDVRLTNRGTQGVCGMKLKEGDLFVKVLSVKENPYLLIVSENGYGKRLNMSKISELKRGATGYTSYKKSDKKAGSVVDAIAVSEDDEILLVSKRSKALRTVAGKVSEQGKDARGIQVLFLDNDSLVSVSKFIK
# [2] = biological target: T1, Gac (Borrelia burgdorferi sensu stricto B31); assay: competition with a labelled probe; conditions: 10x vs labeled lp17 telomere; EMSA: 50 mM Tris-HCl (pH not stated), 25 mM KCl, 10% glycerol, 0.01% Tween 20, 100 nM DTT, 1 mM PMSF; 15 min, room temperature; 10 nM probe, 25 nM Gac; recombinant protein; protein details: C-terminal His (pET101); label: IRDye800 (probe) or unlabeled; probe letters rebuilt from the primers and the genome; part of a longer …
sequence,measurement,setting,value
CCTCCTTTTTATTTATGAATTATTAGTCCAACAATTTTGTTTTTCAATTTTTTATTTGAAAAAATAATTTTTTCAAATTCTTCAATATCTTGAATAAATATTGAAGAATTTGAAAAATATTGTCTTAATTTGATTTTAAAATCGACATAAGCAAAGCCAAATATGC (double strand) [B31 ospC operator/promoter],binding result,[1],binds
same,binding result,[2],binds
